Experimental data taken from PMC10866962, “Molecular docking of bioactive compounds extracted and purified from selected medicinal plant species against covid-19 proteins and in vitro evaluation” (Scientific Reports, 2024).

Test system: brine shrimp nauplii
Assay: Brine shrimp lethality assay (BSLA)
Details: at highest 200 µg/mL concentration, 24 h

## Quercitin-3-O rhamnoside [Quercitin-3-O-rhamnoside]
  mortality rate / cytotoxic effect in brine shrimp lethality assay: 60%
